Tested on: influenza viruses (A/PuertoRico/8/34 (H1N1), A/Guangdong-MaonanSWL1536/2019 (H1N1) pdm09, A/Victoria/4897/2022(H1N1), B/Colorado/06/2017(BV))
Type: cell-based, Influenza A and B virus

## Oc1cc2c3c(c1)c1cc4c(cc1c[n+]3CC2)OCO4 [Lycobetaine]
  viral replication and spread (virus titer): consistently inhibited viral replication and spread across all tested strains

## O=c1cc(-c2ccc(O)cc2)oc2cc(O)c(O)c(O)c12 [Scutellarein]
  viral replication and spread (virus titer): consistently inhibited viral replication and spread across all tested strains

Source: article PMC11988775, “Glycyl-tRNA Synthetase as a Target for Antiviral Drug Screening Against Influenza Virus” (International Journal of Molecular Sciences, 2025)
